Data reported in patent US12365691B2, “Method of synthesizing (3S,3AR,5R,7AS,8S)-hexahydro-4H-3,5-methanofuro[2,3-b]pyran-8-ol” (Purdue Research Foundation, priority 2022, dated 2025).

Test system: HIVLAI
Experiment: antiviral activity in MT-2 human-T-lymphoid cells exposed to HIVLAI
Type: cell-based, HIV-1
Settings: read-out: antiviral IC50
Procedure: Enantiomerically pure ligand alcohol 3 is converted into HIV-1 PI 2 as shown in Scheme 4 (FIG. 6). Reaction of the known (R)-(hydroxyethyl)sulfonamide isostere 4 with carbonate 14 in the presence of DIPEA at 23° C. for 5 days furnished HIV-1 PI 2 (e.g., in 84% yield).

CC(C)CN(C[C@@H](O)[C@H](Cc1cc(F)cc(F)c1)NC(=O)O[C@H]1[C@H]2CO[C@H]3OC[C@@H]1[C@H]3C2)S(=O)(=O)c1ccc2nc(NC3CC3)sc2c1
IC50: 0.017 nM
